Laboratory results published in patent US6635636B1, “Substituted 6-benzyl-4-oxopyrimidines, process for their preparation and pharmaceutical compositions containing them” (Idenix Pharmaceuticals, Inc., priority 1998, dated 2003).

System: HIV-1 (IIIB strain)
Test: Anti-HIV-1 assay: inhibition of virus-induced cytopathicity in acutely infected MT-4 cells (MTT)
Assay type: cell-based
Details: for SI: selectivity index, CC50/EC50 ratio: CC50 (mock-infected cells) / EC50 (HIV-1 in MT-4 cells)
Method: Compounds. Compounds were solubilized in DMSO at 200 mM and then diluted into culture medium.
Cells and viruses. MT-4, C8166, H9/IIIB and CEM cells were grown at 37° C. in a 5% CO2 atmosphere in RPMI 1640 medium, supplemented with 10% fetal calf serum (FCS), 100 UI/mL penicillin and 100 μg/mL streptomycin. Cell cultures were checked periodically for the absence of mycoplasma contamination with a MycoTect Kit (Gibco). Human immunodeficiency virus type-1 (HIV-1, IIIB strain) was obtained from supernatants of persistently infected H9/IIIB cells.
Anti-HIV assays. Activity of the compounds against HIV-1 and HIV-2 multiplication in acutely infected cells was based on the inhibition of virus-induced cytopathicity in MT-4 and C8166 cells, respectively. Briefly, 50 μL of culture medium containing 1×10^4 cells were added to each well of flat-bottom microtiter trays containing 50 μl of culture medium with or without various concentrations of the test compounds. Then 20 μL of an HIV suspension containing 100 CCID50 were added. After a 4-day incubation at 37° C., the number of viable cells was determined by the 3-(4,5-dimethylthiazol-[…])-2,5-diphenyltetrazolium bromide (MTT) method. Cytotoxicity of the compounds was evaluated in parallel with their antiviral activity. It was based on the viability of mock-infected cells, as monitored by the MTT method.

Row | Compound | SI (selectivity index, CC50/EC50 ratio) | SI: selectivity index, CC50/EC50 ratio
1 | CCC(C)Sc1nc(Cc2ccc(F)cc2)cc(=O)[nH]1 (racemic) [MC 889] | 23 | –
2 | CN(C)c1nc(Cc2c(F)cccc2F)cc(=O)[nH]1 [MC 1182] | – | >4,000
3 | CCCCSc1nc(Cc2c(Cl)cccc2Cl)cc(=O)[nH]1 [MC 886] | >454 | –
4 | CC(C)Nc1nc(C(C)c2c(F)cccc2F)cc(=O)[nH]1 (racemic) [MC 1191] | – | 3,830
5 | CCC(C)Sc1nc(Cc2c(Cl)cccc2Cl)c(C)c(=O)[nH]1 (stereo not drawn) [MC 850] | >4,000 | –
6 | CCC(C)Sc1nc(Cc2ccc(C)cc2)c(C)c(=O)[nH]1 (stereo not drawn) [MC 845] | 32 | –
7 | Cc1ccccc1Cc1cc(=O)[nH]c(SC2CCCC2)n1 [MC 842] | >59 | –
8 | COCCNc1nc(Cc2c(F)cccc2F)cc(=O)[nH]1 [MC 1043] | >250 | –
9 | CNc1nc(C(C)c2c(F)cccc2F)cc(=O)[nH]1 (racemic) [MC 1178] | 964 | –
10 | CSc1nc(Cc2c(Cl)cccc2Cl)cc(=O)[nH]1 [MC 877] | >62 | –
11 | CC1CC(C)CC(Oc2nc(Cc3ccccc3)cc(=O)[nH]2)C1 (mixture of isomers) [MC 512] | >6.7 | –
12 | CC(c1cc(=O)[nH]c(SC2CCCCC2)n1)c1cccc2ccccc12 (stereo not drawn) [MC 974] | 321.4 | –
13 | CSCSc1nc(Cc2c(F)cccc2F)cc(=O)[nH]1 [MC 1161] | – | >250
14 | CCC(C)Sc1nc(Cc2cccc(OC)c2)cc(=O)[nH]1 (stereo not drawn) [MC 957] | >166 | –
15 | CCC(C)Sc1nc(Cc2ccc(Cl)cc2)c(C)c(=O)[nH]1 (stereo not drawn) [MC 911] | 20 | –
